Literature values, collected in US20020136789A1, “Use of tagetes minuta oil and its components as antiviral agents” (COUNCIL OF SCIENTIFIC & INDUSTRIAL RESEARCH, priority 2001, published 2002).

Biological target: HIV integrase (Human immunodeficiency virus type 1 group M subtype B, UniProt P04585)
Conditions: cited from earlier work

Q: With quercetin as the substance, how does the “IC50 against HIV integrase” value read?
A: 18.1 ± 1.3 µg/mL
